Target: N-terminal His-tagged IpgC (Shigella flexneri 5a (M90T)) (UniProt P0A2U4)
Assay: SAXS

## IpaB full-length (natural protein)
  stoichiometry N (IpaB per IpgC): 1

Source: publication PMC8117225, “Structural Insights of Shigella Translocator IpaB and Its Chaperone IpgC in Solution” (2021)
